For two molecules, IC50 results are on record in ChEMBL document CHEMBL4715853 (J Med Chem, 2020).

The subject of the experiment is SARS-CoV. The experiment is described as follows: Antiviral activity against SARS-CoV infected in human 293T cells harboring ACE2 assessed as reduction in virus infectivity pretreated with cells followed by viral infection and measured after 2 days by luciferase based reporter gene assay. The note with it: hek293t.

As to `CC(C)(C)N1CCN(C(=O)N[C@@H](Cc2ccccc2)C(=O)N[C@H](/C=C/S(=O)(=O)c2ccccc2)CCc2ccccc2)CC1`, the IC50 came to 0.08 nM.

In the case of `COCCN1CCN(C(=O)N[C@@H](Cc2ccccc2)C(=O)N[C@H](/C=C/S(=O)(=O)c2ccccc2)CCc2ccccc2)CC1`, the concentration for half-maximal inhibition (IC50) stood at 0.07 nM.
